Assay in all cases: ITC; 37°C; gp120 about 4 µM in the cell, sCD4 about 40 µM in the syringe; reaction A1 (CD4 to free gp120); apparent enthalpy
For orientation: Isothermal titration calorimetry measures the heat released or taken up as one component is titrated into another.

Experiment [1] addresses 2CC (HIV-1 (HXBc2)).
In experiment [2] the target is 4CC (HIV-1 (HXBc2)).
The target of experiment [3] is coreV3S (HIV-1 (HXBc2)).
For experiment [4], the target named is 3CC (HIV-1 (HXBc2)).

The text below walks through data of article PMC2680979.

With “sCD4 (from UniProt P01730 26-396) (receptor)”, the dH is 27 kcal/mol in experiment [1], 27 kcal/mol in experiment [2], 56 kcal/mol in experiment [3] and 27 kcal/mol in experiment [4].
